Results deposited as PubChem BioAssay AID1259414 (Drosophila RNAi Screening Center, 2018).
The deposit covers about 24,000 reagents; below is a random part of those that have a named target and a result. In the full data, about 1,210 (5%) are marked active. 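Inactive calls also include excluded dsRNAs with several or no targets, genes unexpressed in JW18, and well A1, regardless of score.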 A number with no mark means an inactive call. A plus sign joins genes that one reagent is predicted to hit.

- Aim: 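Genome-wide screen for host control of endosymbiont load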 (primary screen)
- Cell system: Drosophila JW18 cells infected with Wolbachia
- Knock-down reagent: long dsRNA against Drosophila genes, 0.25 µg dsRNA per well of a 384-well plate
- Duration: 5 days
- Treatment: cells persistently infected with Wolbachia before knock-down; no added drug
- Measurement: 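Imaged fluorescence in situ signal for Wolbachia 23S rRNA per DAPI-counted host cell, given as a robust z-score within each plate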
- Direction: Wolbachia per cell robust z: higher = more Wolbachia per host cell than the plate typical
- Rule for the call: 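Active if absolute robust z reaches 1.5 in two or more of three replicates, leaving out multi- or no-target dsRNAs, genes unexpressed in JW18 and A1 wells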

gene knocked down	dsRNA	Wolbachia per cell robust z, rep 1	Wolbachia per cell robust z, rep 2	Wolbachia per cell robust z, rep 3
CG9514	DRSC20190	-0.547	0.775	0.53
CG9514	DRSC20191	-2.28 (active)	-0.674	-1.63
CG9514	DRSC30059	0.615	-0.665	1.62
CG33643	DRSC37852	0.698	-0.66	-0.487
kar	DRSC14496	-0.972	-0.932	-6.15
CG10470	DRSC02061	0.857	-0.111	-1.75
p24-2 + Unc-115b + Unc-115a	DRSC16502	-1.27	-1.06	-0.392
Vm32E	DRSC03474	-1.16	-0.876	-4.61
Vm32E	DRSC25156	-2.2	-3.9	-0.244
CG33510	DRSC37782	-0.289	-0.214	-0.467
chif + Hyls1	DRSC40557	-1.81	-0.734	0.385
KaiR1D	DRSC15516	-6.41	-1.43	-0.749
Ptp4E	DRSC18701	-3.2	0.321	0.153
CG4982	DRSC10465	-2.41	-1.63	-1.07
TBC1D16	DRSC02841	-1.6	0.0757	-1.46
Droj2	DRSC16450	-0.106	0.126	-1.08
Droj2	DRSC28863	-0.0686	-4.74	-0.436
ccb	DRSC20501	-0.99	-0.881	-0.829
CG34279	DRSC38654	0.131	0.0879	0.939
JhI-26	DRSC06851	-1.45	0.11	-1.46
JhI-26	DRSC27424	0.0857	0.458	0.234
ND-23	DRSC15526	-0.654	0.572	-0.489
CG32576	DRSC19136	0.525	0.812	1.08
CG15822	DRSC08482	-0.127	0.45	0.725
CG15822	DRSC08483	-2.8	1.14	0.359
scaf6	DRSC10075	-0.0812	-0.381	0.931
scaf6	DRSC10676	0.882	0.649	-0.267
ppk15	DRSC14733	-3.2	0.906	0.568
ppk15	DRSC27947	0.859	-0.555	0.721
